Source: PubChem BioAssay AID1259414 (Drosophila RNAi Screening Center, 2018)
In all, the deposit lists about 24,000 reagents; shown is a random part of those that have a named target and a result. Over the whole deposit, about 1,210 (5%) are marked active. 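Inactive calls also include excluded dsRNAs with several or no targets, genes unexpressed in JW18, and well A1, regardless of score.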 Entries without a mark were called inactive. A plus sign joins genes that one reagent is predicted to hit. No sequences are given here.

Assay: 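Genome-wide screen for host control of endosymbiont load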 (primary screen)
System: Drosophila JW18 cells infected with Wolbachia
Knock-down reagent: long dsRNA against Drosophila genes, 0.25 µg dsRNA per well of a 384-well plate
Time to read-out: 5 days
Challenge: cells persistently infected with Wolbachia before knock-down; no added drug
Detection: 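Automated imaging of bacterial rRNA staining divided by host cell count, reported as plate-normalised robust z-score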
Direction: Wolbachia per cell robust z: higher = more Wolbachia per host cell than the plate typical
Hit rule: 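Hit when robust z is 1.5 or more, or -1.5 or less, in at least two of three replicates; excludes dsRNAs with several or no targets, genes not expressed in JW18 and well A1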

no.	Gene	DRSC id	Wolbachia per cell robust z, rep 1	Wolbachia per cell robust z, rep 2	Wolbachia per cell robust z, rep 3
1	CG15011	DRSC08464	-1.73	0.539	1.17
2	FucTC	DRSC20966	0.0488	-0.407	-0.112
3	FucTC	DRSC29686	-5.97	0.411	0.35
4	COX6AL2	DRSC10082	-0.302	-5.04	0.654
5	CG8939	DRSC20127	0.515	0.886	-0.375
6	CG1316	DRSC08304	0.654	0.476	0.234
7	RpS28a	DRSC15064	0.398	0.567	-3.9
8	CG7246	DRSC18422	-0.00486	0.308	0.331
9	CG30356	DRSC05119	-2.2	-2.66	-0.688
10	CG7600	DRSC09681	0.561	-1.93	0.364
11	CG7600	DRSC25328	0.938	1.47	0.501
12	SLIRP2	DRSC16363	-2.49	-3.81	-3.21
13	SLIRP2	DRSC26237	-1.1	-0.34	0.144
14	fs(1)Yb	DRSC18777	0.214	0.573	-1.03
15	blow	DRSC07586	-0.77	-0.271	-3.21
16	blow	DRSC27716	-0.0744	0.428	0.642
17	U2A	DRSC06445	1.69	0.173	-1.12
18	U2A	DRSC28070	0.133 (active)	2.33	1.88
19	hop	DRSC20340	0.639	1.51	-3.44
20	hop	DRSC23334	0.545	-0.211	-0.987
21	hop	DRSC26551	-0.411	-1.05	-0.833
22	CG31041	DRSC13951	0.998	-1.03	0.0301
23	msb1l	DRSC03572	-0.738	-0.931	-0.698
24	msb1l	DRSC26438	0.0875	0.645	0.196
25	CG11456	DRSC11665	0.638	0.727	0.342
26	CG7131	DRSC16203	-2.36	-0.451	-0.238
27	CG7131	DRSC29880	0.924	0.314	0.727
28	meigo	DRSC15877	-1.5 (active)	-1.51	0.226
29	meigo	DRSC25836	1.07	0.731	2.37
30	Ugt301D1	DRSC02021	-0.318	-0.0093	-0.258
31	hpRNA:CR18854 + IP3K1	DRSC23313	-0.362	0.433	0.379
32	CG18135	DRSC10295	0.00487	0.632	0.00386
33	obst-B	DRSC01987	0.913	0.181	0.851
34	CG30091	DRSC21809	0.475	0.52	0.946
35	CG30091	DRSC27799	-1.47	-0.947	0.308
36	CG2901	DRSC18239	-0.741	-2.69	-1.88
37	CG6923	DRSC16136	0.888	0.446	-0.0891
38	CG6923	DRSC29621	-0.596	-0.223	-1.35
39	CG43349 + CG5011	DRSC29184	0.112	0.322	-0.681
40	CG34221	DRSC06150	0.905	0.455	0.184
41	CG34221	DRSC41293	-0.275	0.46	-0.455
42	Fitm	DRSC09772	1.5	0.0477	-0.497
43	Fitm	DRSC28750	1.13	-0.85	0.348
44	CG14618	DRSC20631	0.312	0.199	0.133
45	CG31823	DRSC01887	0.165	0.916	-0.0115
46	Cpr62Ba	DRSC08403	0.711	1.07	0.665
47	CG7506	DRSC10860	-8.05 (active)	-0.186	-9.36
48	PlexA	DRSC17220	-1.72	0.856	-0.623
49	PlexA	DRSC40720	-0.639	-2.04	-0.997
50	CG6398	DRSC19992	0.729	0.127	-0.194
51	clu	DRSC07181	0.173	-0.128	-0.0536
52	clu	DRSC29278	0.559	0.928	0.741
53	CG13737	DRSC10064	0.881	-1.38	-1.41
54	tsl	DRSC17090	-0.283	-3.98	0.378
55	CG9263	DRSC03176	0.961	-0.573	0.0807
56	CG16995	DRSC00480	-2.67	-5.58	-5.3
57	RpL27	DRSC15638	-0.231	0.806	1.78
58	RpL27	DRSC25890	0.872 (active)	3.46	3.53
59	Phf7	DRSC23523	0.509	-0.519	0.565
60	Pez	DRSC03397	-0.101	-1.45	-0.0773
61	Pez	DRSC27921	0.00431	0.803	1.02
62	enok	DRSC04096	0.425	1.96	1.02
63	fray	DRSC16950	0.384	0.636	0.266
64	Ddx1	DRSC11862	0.205	-0.0152	0.083
65	CG10086	DRSC14183	-4.67	-0.0298	0.428
66	CG12912	DRSC25772	-1.5	-0.908	0.427
67	CG13361	DRSC17896	-0.631	0.276	0.428
68	CG13361	DRSC29728	-1.41	0.924	0.0553
